Molecular target: (his)6CfaB, mature CfaB (residues 24–170) with N-terminal hexahistidine tag (enterotoxigenic E. coli (ETEC)) (UniProt E3PPC4)
Experiment: pull-down

## CfaA (20–238) C163S/C172S (natural protein)
  CfaA/CfaB ratio: 0.36

## CfaA (20–238) E86A (natural protein)
  CfaA/CfaB ratio: 0.32

## CfaA (20–238) I118A (natural protein)
  CfaA/CfaB ratio: 0.11

## CfaA (20–238) K164-N171 (8×A) (natural protein)
  CfaA/CfaB ratio: 0.37

## CfaA (20–238) L114A (natural protein)
  CfaA/CfaB ratio: 0.36

## CfaA (20–238) R125A (natural protein)
  CfaA/CfaB ratio: 0.47

## CfaA (20–238) R154A (natural protein)
  CfaA/CfaB ratio: 0.44

## CfaA (20–238) T44A/E45A/E46A (natural protein)
  CfaA/CfaB ratio: 0.67

## CfaA (20–238) T112A (natural protein)
  CfaA/CfaB ratio: 0.67

## CfaA (20–238) V116A (natural protein)
  CfaA/CfaB ratio: 0.06

## CfaA (20–238) Y120A (natural protein)
  CfaA/CfaB ratio: 0.13

From paper PMC4133393, “Structure of CfaA Suggests a New Family of Chaperones Essential for Assembly of Class 5 Fimbriae” (2014)
